Laboratory results taken from patent US20090081183.

How the values were obtained:
Assay in all cases: EMSA
[1] = target: T1, LSF (his-LSF) (Homo sapiens) (UniProt Q12800); conditions: purified recombinant protein; protein details: His tag, expressed in E. coli; label: end labeled
T1 sequence (limits assumed): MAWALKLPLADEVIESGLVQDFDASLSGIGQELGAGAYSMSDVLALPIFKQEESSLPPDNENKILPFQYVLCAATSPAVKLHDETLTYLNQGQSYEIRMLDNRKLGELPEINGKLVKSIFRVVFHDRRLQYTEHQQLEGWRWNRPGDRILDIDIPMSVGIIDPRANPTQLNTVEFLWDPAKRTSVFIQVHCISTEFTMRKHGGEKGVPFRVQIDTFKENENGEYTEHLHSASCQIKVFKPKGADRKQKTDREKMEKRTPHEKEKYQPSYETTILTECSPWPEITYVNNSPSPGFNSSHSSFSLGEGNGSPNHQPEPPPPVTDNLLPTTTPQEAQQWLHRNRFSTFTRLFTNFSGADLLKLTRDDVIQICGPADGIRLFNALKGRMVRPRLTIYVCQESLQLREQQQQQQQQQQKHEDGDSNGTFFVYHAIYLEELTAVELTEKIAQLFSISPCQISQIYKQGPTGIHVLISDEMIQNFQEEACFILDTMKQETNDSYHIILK

[2] = test system: LSF + YY1 complex (Homo sapiens); conditions: purified recombinant protein; protein details: His tags, expressed in E. coli; label: end labeled
[3] = test system: YY1/LSF repressor complex (copurifying with HDAC1) from CEM nuclear extract (Homo sapiens); conditions: RCS-binding activity, YY1, LSF and HDAC1 copurify in 0.3 and 0.4 M NaCl fractions of RCS DNA-affinity column; purified native protein; label: end labeled

Measured: binding result

CAAGGGACTTTCCGCTGGGGACTTTCCAGGGAGGCGTGGCCTGGGCGGGACTGGGGAGTGGCGAGCCCTCAGATGCTGCATATAAGCAGCTGCTTTTTGCCTGTACTGGGTCTCTCTGGTTAGACCAGATTTGAGCCTGGGAGCTCTCTGGCTAACTAGGGAACCCACTGCTTAAGCCTCAATAAAGCTTGCCTTGAGTG (double strand) [HIV-1 LTR RCS oligonucleotide (-10 to +27)]
binds: all assays above

For part of these data: Tags and fusion partners may be left off the protein sequences shown. For part of these data: The exact form of at least one protein or probe is not confirmed.
